Results of unrelated studies side by side (data: NIAID ChemDB).

All rows: tests in culture; agent: HIV-1; read-out: fold resistance

Fold resistance: result on the changed form divided by that on wild type.

structure	cell line	setting	mutations	strain or isolate	method	value
C#C[C@]1(CO)O[C@@H](n2cc(C)c(=O)[nH]c2=O)C[C@@H]1O	HeLa	-	RT-L74V	-	β-galactosidase	1.89
Cc1cn([C@H]2C[C@H](N=[N+]=[N-])[C@@H](CO)O2)c(=O)[nH]c1=O	MT-2	-	I401T	IIIB	p24 / ELISA	0.4
CC(C)=CCN1c2cc(Cl)cc3[nH]c(=S)n(c23)C[C@@H]1C	MT-4	-	RT-L74V K103N	-	-	8
Cc1occc1C(=S)Nc1ccc(Cl)c(/C=N/OC(C)(C)C)c1	CEM	-	RT-K103N	IIIB	cytopathic effect	12.5
Cc1occc1C(=S)Nc1ccc(Cl)c(/C=N/OC(C)(C)C)c1	CEM + CEM-SS	-	RT-L74V	NL4-3 (RT L74V)	cytopathic effect / XTT	0.875
CCc1c(C)[nH]c(=O)c(N(C)C)c1C(=O)c1cccc(C(C)=O)c1	MT-4	-	RT-K103N	-	cytopathic effect / MTT	12.6
Cc1ccnc2c1NC(=O)c1cccnc1N2C1CC1	CEM + CEM-SS	-	RT-Y181C	Diphenyl sulfone-resistant (RT-Y181C)	cytopathic effect / XTT	590
COC(=O)N[C@H](C(=O)N[C@@H](Cc1ccccc1)[C@@H](O)CN(Cc1ccc(-c2ccccn2)cc1)NC(=O)[C@@H](NC(=O)OC)C(C)(C)C)C(C)(C)C	MT-4	-	L23I E34Q K43I M46I I50L G51A L63P A71V V82A T91A	NL4-3	p24 / luminescence	>500
CC(C)=CCOc1cc(NC(=S)c2ccoc2C)ccc1Cl	CEM	-	RT-V179D	IIIB	cytopathic effect	3
Cn1c2ccccc2c2c1cc(C#N)c(=O)n2-c1ccc([N+](=O)[O-])cc1	HeLa	-	RT-V75I F77L F116Y Q151M	NRTI resistant	luciferase	0.9
Cc1cn([C@H]2C[C@H](N=[N+]=[N-])[C@@H](CO)O2)c(=O)[nH]c1=O	CEM	-	RT-E138K	IIIB TSAO-T(RT-E138K)	syncytia	3
Nc1ccn([C@H]2CC[C@@H](CO)O2)c(=O)n1	HELA-CD4+	-	RT-D67N T215Y	JF18(RT-D67N T215Y)	plaque count	1.29
Cc1cn([C@H]2C[C@H](N=[N+]=[N-])[C@@H](CO)O2)c(=O)[nH]c1=O	HeLa	-	RT-M41L D67N T69N K70R T215F K219E	NRTI resistant	luciferase	21
Nc1ccn([C@H]2CC[C@@H](CO)O2)c(=O)n1	PBMC	-	RT-A98G Y181C	BCF08	-	0.4
Cc1cn([C@H]2C[C@H](N=[N+]=[N-])[C@@H](CO)O2)c(=O)[nH]c1=O	HT4 + HT4-6C	-	RT-D67N K70R T215Y K219Q	clinical isolate A018C (RT D67N K70R T215Y K219Q)	plaque count	230
COC(=O)N[C@H](C(=O)N[C@@H](Cc1ccccc1)[C@@H](O)CN(Cc1ccc(-c2ccccn2)cc1)NC(=O)[C@@H](NC(=O)OC)C(C)(C)C)C(C)(C)C	HeLa	-	PR-I50L A71V	Site-directed PR mutant 06	β-galactosidase	5.3
COC(=O)NCCCC(C)(C)CN(C[C@@H](O)[C@H](Cc1ccccc1)NC(=O)O[C@H]1CO[C@H]2OCC[C@H]21)S(=O)(=O)c1cccc(N)c1	MT-4	-	PR-M46I L63P A71V V82F/L I84V	Multi-PI-resistant EP13	cytopathic effect / propidium iodide	2
CC(C)=CCN1Cc2cc(Cl)cc3[nH]c(=S)n(c23)C[C@@H]1C	CEM	-	RT-Y181C	IIIB-Nevirapine(0.1)(RT-Y181C)	syncytia	1090
O=c1[nH]cnc2c1ncn2[C@H]1CC[C@@H](CO)O1	PBMC	-	RT-A98G K103R Y181C	BCF01	-	<0.147
CC(C)=CCOc1cc(NC(=S)c2ccsc2C)ccc1Cl	CEM	-	RT-L100I	IIIB	cytopathic effect	2
CCOP(=O)(COc1ccc(C[C@H](NC(=O)O[C@H]2CO[C@H]3OCC[C@H]32)[C@H](O)CN(CC(C)C)S(=O)(=O)c2ccc(OC)cc2)cc1)OCC	MT-2	-	K112M K113E V128I	IIIB	p24 / ELISA	1.3
c1ccc2c(c1)sc1nccn12	CEM + CEM-SS	-	RT-L100I	IIIB(OC-R(I))	cytopathic effect / XTT	>200
CC(C)CN(C[C@@H](O)[C@H](Cc1ccccc1)NC(=O)O[C@H]1CCOC1)S(=O)(=O)c1ccc(N)cc1	MT-2	-	M200I	IIIB	p24 / ELISA	0.3
Nc1nc2c(ncn2[C@H]2CC[C@@H](CO)O2)c(=O)[nH]1	CEM	-	RT-K103N	IIIB TIBO R82913 STR-2 (RT K103N)	syncytia	2
CC(=O)Oc1ccc(/C=C/C(=O)O[C@@H](C(=O)O)[C@@H](OC(=O)/C=C/c2ccc(OC(C)=O)c(OC(C)=O)c2)C(=O)O)cc1OC(C)=O	MT-4	-	AR177-resistant	NL4-3	cytopathic effect / MTT	>9
Cc1cc(C)cc(S(=O)(=O)c2c(C(=O)N[C@@H](C)c3ccccc3)[nH]c3ccc(Cl)cc23)c1	MT-4	-	Y188L	NL4-3	MTT	>5778
CC(C)=CCN1Cc2cc(Cl)cc3[nH]c(=S)n(c23)C[C@@H]1C	CEM	-	RT-K103N	IIIB	cytopathic effect	≥312.5
CCc1c(C(=O)c2cc(C)cc(C)c2)n(CC2CC=CC2)c(=O)[nH]c1=O	CEM + CEM-SS	-	RT-K103N	NL4-3	cytopathic effect / XTT	>70
Cc1cc(S(N)(=O)=O)ccc1NC(=O)COc1ccc(Cl)cc1C(=O)c1cc(F)cc(C(F)(F)F)c1	HeLa + HeLa-MAGI	-	RT-Y181C	HXB2	β-galactosidase	1.5
Cc1cn([C@H]2C[C@H](N=[N+]=[N-])[C@@H](CO)O2)c(=O)[nH]c1=O	PBMC	-	RT-A98G K103R	BCF06	-	>3
Cc1cn([C@H]2C[C@H](F)[C@@H](CO)O2)c(=O)[nH]c1=O	PBMC	-	RT-M41L M43E E44D/A D67N V118I M184V L210W T215Y K219N	RS NRTI-MDR (RT M41L M43E E44A D67N V118I M184V L210W T215Y K219N)	antigen	1.1
CCc1c(C)[nH]c(=O)c(N(C)C)c1C(=O)c1cc(Cl)cc(Cl)c1	MT-4	-	RT-G190A	-	cytopathic effect / MTT	5.5
CCOCn1c(Cc2cc(C)cc(C)c2)c(CC)c(=O)[nH]c1=O	CEM	-	RT-L100I	IIIB TIBO R82150-resistant (RT L100I)	syncytia	54
CCOCn1c(Sc2ccccc2)c(CC)c(=O)[nH]c1=S	CEM	-	RT-Y181C	IIIB PYR(RT-Y181C)	syncytia	132.5
Nc1cccc(CN2C(=O)N(Cc3cccc(N)c3)[C@H](Cc3ccccc3)[C@H](O)[C@@H](O)[C@H]2Cc2ccccc2)c1	MT-2	-	PR-D60E I84V	THAI (PR-D60E I84V)	virus yield	10
CCc1c(C)[nH]c(=O)c(N(C)C)c1C(=O)c1cccc(CCC#N)c1	MT-4	-	RT-K103N	-	cytopathic effect / MTT	4.3
Nc1ncnc2c1ncn2CCOCP(=O)(O)O	CEM	-	RT-V179N	IIIB-Pyridinone(0.1)(RT-V179N	syncytia	1.86
CC1=C(C(=O)Nc2ccc(Cl)c(C(=O)OC(C)C)c2)SCCO1	CEM + CEM-SS	-	RT-Y181C	IIIB(DPS-R(III))	cytopathic effect / XTT	11
Cc1cn([C@H]2C=C[C@@H](CO)O2)c(=O)[nH]c1=O	MT-4	-	RT-L74V	AJ-05.93 (HXB2(RT-L74V))	cytopathic effect	62.4
Nc1nc(=O)n([C@H]2CS[C@@H](CO)O2)cc1F	MT-2	pseudotyped	T66I	HXB2	recombinant virus assay / single cycle	0.8
CC(C)(CCCN)CN(C[C@@H](O)[C@H](Cc1ccccc1)NC(=O)O[C@H]1CO[C@H]2OCC[C@H]21)S(=O)(=O)c1ccc2c(c1)OCO2	MT-4	-	PR-M46I L63P A71V V82F/L I84V	Multi-PI-resistant EP13	cytopathic effect / propidium iodide	1.46
O=c1[nH]cnc2c1ncn2[C@H]1CC[C@@H](CO)O1	MT-2	-	RT-K65R	HxB2-MT 65 (RT-K65R	p24 / ELISA	8.6
O=P(O)(O)Cc1cc2c(O)c(c1)Sc1cc(CP(=O)(O)O)cc(c1O)Sc1cc(CP(=O)(O)O)cc(c1O)Sc1cc(CP(=O)(O)O)cc(c1O)S2	TZM-bl + MT-2	-	integrase inhibitor resistance mutation	-	luciferase	1.3
Fc1cccc(F)c1C1SCc2nc3ccccc3n21	CEM	-	RT-E138K	TSAO-resistant (RT E138K)	cytopathic effect / MTT	1.24
Nc1ccn([C@H]2C[C@H](O)[C@](CO)(CF)O2)c(=O)n1	HeLa	-	RT-M184V	-	β-galactosidase	435
CCCCCCCCCCCCSCC(COP(=O)([O-])OCC[N+](C)(C)C)OCCCCCCCCC(=O)OCC(=O)OC[C@H]1O[C@@H](n2cc(C)c(=O)[nH]c2=O)C[C@@H]1N=[N+]=[N-]	CEM + CEM-SS	-	RT mutant at codon 215	Clinical isolate G910-6 post-AZT	plaque count	3
CC(C)=CCN1Cc2cc(Cl)cc3[nH]c(=S)n(c23)C[C@@H]1C	CEM	-	RT-E138K	IIIB TSAO-T(RT-E138K)	syncytia	5
CC(C)OC(=O)OCOP(=O)(CO[C@H](C)Cn1cnc2c(N)ncnc21)OCOC(=O)OC(C)C	MT-4	-	K65R	NL4-3	cytopathic effect / XTT / absorbance	>16.7
O=c1[nH]cnc2c1ncn2[C@H]1CC[C@@H](CO)O1	HT4 + HT4 LacZ-1	-	RT-Y181C	HXB2	plaque count	0.929
O=c1[nH]cnc2c1ncn2[C@H]1CC[C@@H](CO)O1	CEM	-	RT-L100I Y188H	IIIB TIBO R82913 STR-B22 (RT L100I Y188H)	syncytia	1.6
Cc1ccccc1NC(=O)COc1ccc(Cl)cc1C(=O)c1cc(F)cc(F)c1	MT-4	-	RT-Y181C	Nevirapine-resistant	cytopathic effect / MTS	1.44
C/C=C/c1cccc(C(=O)c2c(CC)c(C)[nH]c(=O)c2N(C)C)c1	MT-4	-	RT-Y188L	-	cytopathic effect / MTT	796
Cc1cn([C@H]2C[C@H](N=[N+]=[N-])[C@@H](CO)O2)c(=O)[nH]c1=O	CEM	-	RT-Y181C	IIIB-Nevirapine(0.1)(RT-Y181C)	syncytia	0.667
c1ccc(C2OCc3nc4ccccc4n32)cc1	CEM	-	RT-K103N	TIBO R82150-resistant (RT K103N)	cytopathic effect / MTT	>0.4
CNC(=O)NCCCC(C)(C)CN(C[C@@H](O)[C@H](Cc1ccccc1)NC(=O)O[C@H]1CO[C@H]2OCC[C@H]21)S(=O)(=O)c1ccc2c(c1)OCO2	MT-4	-	PR-M46I L63P A71V V82F/L I84V	Multi-PI-resistant EP13	cytopathic effect / propidium iodide	2.89
Nc1ccn([C@H]2CC[C@@H](CO)O2)c(=O)n1	MT-4	-	RT-L74V	AJ-05.93 (HXB2(RT-L74V))	cytopathic effect	4.56
C#C[C@]1(CO)O[C@@H](n2cc(I)c(=O)[nH]c2=O)C[C@@H]1O	HeLa	-	RT	RTMDR	β-galactosidase	0.865
COc1ccc(S(=O)(=O)N(CC(C)C)C[C@@H](O)[C@H](Cc2ccc(OC)c(Cl)c2)NC(=O)O[C@H]2CO[C@H]3OCC[C@H]32)cc1	PBMC	-	L10F V32I M46I I54M A71V I84V	NL4-3	p24 / luminescence	6
CCc1cc(NCc2nc3c(Cl)ccc(Cl)c3o2)c(=O)[nH]c1C	CEM	-	RT-L100I	IIIB-TIBO(0.5)(RT-L100I)	syncytia	17
CCCc1cc(=O)oc2c3c(c4c(c12)OC(C)(C)C=C4)O[C@H](C)[C@@H](C)[C@@H]3O	CEM + CEM-SS	-	RT-Y181C	IIIB(N119(III))	cytopathic effect / XTT	0.5
O=c1[nH]cnc2c1ncn2[C@H]1CC[C@@H](CO)O1	PBMC	-	RT-T69K K70G V75I F77L F116Y Q151M M184V	56252-1 NRTI resistant recombinant	RT activity	28
COC(=O)NCCCCC(C)(C)CN(C[C@@H](O)[C@H](Cc1ccccc1)NC(=O)O[C@H]1CO[C@H]2OCC[C@H]21)S(=O)(=O)c1ccc2c(c1)OCO2	MT-4	-	PR-M46I L63P A71V V82F/L I84V	Multi-PI-resistant EP13	cytopathic effect / propidium iodide	9.375
Nc1ccn([C@H]2CC[C@@H](CO)O2)c(=O)n1	MT-2	-	RT-K65R S68G	HXB2-MT 65+68 (RT K65R S68G)	p24 / ELISA	6.28
C/C=C/CSc1cc(NC(=S)c2ccsc2C)ccc1Cl	CEM + CEM-SS	-	RT-V108I	NL4-3 (RT V108I)	cytopathic effect / XTT	4
COC(=O)NCCC(C)(C)CN(C[C@@H](O)[C@H](Cc1ccccc1)NC(=O)O[C@H]1CO[C@H]2OCC[C@H]21)S(=O)(=O)c1ccc2c(c1)OCO2	MT-4	-	PR-M46I L63P A71V V82F/L I84V	Multi-PI-resistant EP13	cytopathic effect / propidium iodide	15.7
CC(C)=CCN1Cc2cccc3[nH]c(=S)n(c23)C[C@@H]1C	CEM + CEM-SS	-	RT-Y181C	IIIB(DPS-R(III))	cytopathic effect / XTT	70
CCc1c(C)[nH]c(=O)c(N(C)C)c1Cc1cccc(/C=C/C#N)c1	MT-4	-	RT-L100I K103N	-	cytopathic effect / MTT	80

6 of the rows above, restated:

Cn1c2ccccc2c2c1cc(C#N)c(=O)n2-c1ccc([N+](=O)[O-])cc1 ; cell line: HeLa ; mutations: RT-V75I F77L F116Y Q151M ; strain or isolate: NRTI resistant ; method: luciferase ; value: 0.9
CNC(=O)NCCCC(C)(C)CN(C[C@@H](O)[C@H](Cc1ccccc1)NC(=O)O[C@H]1CO[C@H]2OCC[C@H]21)S(=O)(=O)c1ccc2c(c1)OCO2 ; cell line: MT-4 ; mutations: PR-M46I L63P A71V V82F/L I84V ; strain or isolate: Multi-PI-resistant EP13 ; method: cytopathic effect / propidium iodide ; value: 2.89
Cc1cn([C@H]2C[C@H](N=[N+]=[N-])[C@@H](CO)O2)c(=O)[nH]c1=O ; cell line: PBMC ; mutations: RT-A98G K103R ; strain or isolate: BCF06 ; value: >3
CC(C)=CCN1c2cc(Cl)cc3[nH]c(=S)n(c23)C[C@@H]1C ; cell line: MT-4 ; mutations: RT-L74V K103N ; value: 8
Nc1nc2c(ncn2[C@H]2CC[C@@H](CO)O2)c(=O)[nH]1 ; cell line: CEM ; mutations: RT-K103N ; strain or isolate: IIIB TIBO R82913 STR-2 (RT K103N) ; method: syncytia ; value: 2
CCCCCCCCCCCCSCC(COP(=O)([O-])OCC[N+](C)(C)C)OCCCCCCCCC(=O)OCC(=O)OC[C@H]1O[C@@H](n2cc(C)c(=O)[nH]c2=O)C[C@@H]1N=[N+]=[N-] ; cell line: CEM + CEM-SS ; mutations: RT mutant at codon 215 ; strain or isolate: Clinical isolate G910-6 post-AZT ; method: plaque count ; value: 3

Neighbouring rows are from separate reports. Blank or dashed fields: not listed here.